For six substances, Change in KD of H2L2 Fab vs wild type, -(log(KD design)-log(KD wt)) results are on record in patent US20190338048A1.

The target of this test is Recombinant HER2 protein (HER2-ECD) (UniProt P04626). Nature of the test: SPR as for KD.

With “Pertuzumab Fab, H2 L124R_Q179K / L2 V133G_S176D_T178E”, the Change in KD of H2L2 Fab vs wild type, -(log(KD design)-log(KD wt)) is -0.03 log units. With “Pertuzumab Fab, H2 L124R_Q179K / L2 V133G_S176D_T180E” the figure was 0.02 log units.

Turning to “Pertuzumab Fab, H2 L124R_S186K / L2 V133G_S176D_T178E”, the Change in KD of H2L2 Fab vs wild type, -(log(KD design)-log(KD wt)) was -0.02 log units. The same measure for “Pertuzumab Fab, H2 L124R_S186R / L2 V133G_S176D_T180E”: -0.01 log units; for “Pertuzumab Fab, H2 L143I_S186K / L2 V133D_Q160E”: 0.05 log units; for “Pertuzumab Fab, H2 V177I_S188K / L2 V133L_S176D_T178E”: -0.01 log units.
